Data source: PubChem BioAssay AID624099 (ICCB-Longwood, 2012)

- Screen: 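Human genes that papillomavirus E2 requires to repress the HPV18 LCR promoter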 (primary screen)
- Cell system: human C33A cervical carcinoma cells (HPV-negative) stably expressing BPV1 E2 and an HPV18 LCR luciferase reporter
- Reagents: siRNA pool against human genes, 40 nM
- Duration: 72 h
- Measured: 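Per-well luciferase luminescence, z-scored on each plate against the plate mean and SD with control wells left out, then averaged across three replicate plates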
- Scale: mean z-score and z-score: higher = stronger reporter signal, weaker E2 silencing
- Hit rule: 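Mean z ≥ 2 together with z ≥ 2 in two or more of the three replicates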
This is an unselected part of about 21,000 reagents. 497 of all reagents (2.4%) were called active. 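Higher z means weaker E2 silencing; only reporter increases were scored, and knock-downs that hurt cell survival may mask genuine repressor factors.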

GTF3C6 (GeneID 112495) [SID134319546] — mean z-score: 1.07; z-score, replicate A: 0.75; z-score, replicate B: 1.4; z-score, replicate C: 1.06; call: inactive
LACRT (GeneID 90070) [SID134317929] — mean z-score: 0.5; z-score, replicate A: 0.35; z-score, replicate B: 0.63; z-score, replicate C: 0.52; call: inactive
OCM2 (GeneID 4951) [SID134316522] — mean z-score: 0.53; z-score, replicate A: 0.67; z-score, replicate B: 0.42; z-score, replicate C: 0.51; call: inactive
KLHL5 (GeneID 51088) [SID134315313] — mean z-score: 0.29; z-score, replicate A: 0.57; z-score, replicate B: 0.38; z-score, replicate C: -0.1; call: inactive
ALOX12 (GeneID 239) [SID134310520] — mean z-score: 0.51; z-score, replicate A: 0.26; z-score, replicate B: 0.66; z-score, replicate C: 0.62; call: inactive
TAPBPL (GeneID 55080) [SID134310233] — mean z-score: -0.56; z-score, replicate A: -0.45; z-score, replicate B: -0.3; z-score, replicate C: -0.92; call: inactive
LOC100287740 (retired record) (GeneID 100287740) [SID134327131] — mean z-score: -0.35; z-score, replicate A: -0.5; z-score, replicate B: -0.23; z-score, replicate C: -0.33; call: inactive
SLFN13 (GeneID 146857) [SID134319836] — mean z-score: 1.52; z-score, replicate A: 1.54; z-score, replicate B: 1.61; z-score, replicate C: 1.43; call: inactive
POM121C (GeneID 100101267) [SID134327784] — mean z-score: -0.27; z-score, replicate A: -0.39; z-score, replicate B: -0.37; z-score, replicate C: -0.05; call: inactive
POM121C (GeneID 100101267) [SID134329298] — mean z-score: -0.45; z-score, replicate A: -0.43; z-score, replicate B: -0.54; z-score, replicate C: -0.38; call: inactive
ATP5MG (GeneID 10632) [SID134321868] — mean z-score: -0.74; z-score, replicate A: -0.75; z-score, replicate B: -0.77; z-score, replicate C: -0.7; call: inactive
SLC25A20 (GeneID 788) [SID134312526] — mean z-score: -0.6; z-score, replicate A: -0.61; z-score, replicate B: -0.53; z-score, replicate C: -0.65; call: inactive

Records above whose gene name starts with L or l (2):
LACRT (GeneID 90070) [SID134317929] — mean z-score: 0.5; z-score, replicate A: 0.35; z-score, replicate B: 0.63; z-score, replicate C: 0.52; call: inactive
LOC100287740 (retired record) (GeneID 100287740) [SID134327131] — mean z-score: -0.35; z-score, replicate A: -0.5; z-score, replicate B: -0.23; z-score, replicate C: -0.33; call: inactive
